Data as given in publication PMC12692169, “Identification of Novel TAT-I24-Related Peptides with Antiviral Activities” (International Journal of Molecular Sciences, 2025).
Residues, ends and D or L forms follow the SMILES beside them.

Tested on: HEK293 cells
Conditions: Selectivity index CC50/IC50; CC50 from CellTiter-Blue viability in HEK293, 72 h, from 20 µM; IC50 from baculovirus transduction

SMILES	SI [HEK293]
CC(C)C[C@H](NC(=O)[C@H](CS)NC(=O)[C@H](C)NC(=O)[C@H](Cc1ccc(O)cc1)NC(=O)[C@H](Cc1ccccc1)NC(=O)[C@H](C)NC(=O)[C@H](CC(C)C)NC(=O)[C@H](CCC(N)=O)NC(=O)[C@@H]1CCCN1C(=O)[C@@H]1CCCN1C(=O)[C@H](CCCNC(=N)N)NC(=O)[C@H](CCCNC(=N)N)NC(=O)[C@H](CCCNC(=N)N)NC(=O)[C@H](CCC(N)=O)NC(=O)[C@H](CCCNC(=N)N)NC(=O)[C@H](CCCNC(=N)N)NC(=O)[C@H](CCCCN)NC(=O)[C@H](CCCCN)NC(=O)[C@H](CCCNC(=N)N)NC(=O)CN)C(=O)N[C@@H](C)C(=O)N[C@@H](Cc1ccccc1)C(=O)N[C@@H](CS)C(=O)O [TAT-M14] (H-GRKKRRQRRRPPQLAFYACLAFC-OH; N-terminus and C-terminus assumed)	766
CC(C)C[C@H](NC(=O)[C@H](CS)NC(=O)[C@H](CCC(N)=O)NC(=O)[C@@H]1CCCN1C(=O)[C@@H]1CCCN1C(=O)[C@H](CCCNC(=N)N)NC(=O)[C@H](CCCNC(=N)N)NC(=O)[C@H](CCCNC(=N)N)NC(=O)[C@H](CCC(N)=O)NC(=O)[C@H](CCCNC(=N)N)NC(=O)[C@H](CCCNC(=N)N)NC(=O)[C@H](CCCCN)NC(=O)[C@H](CCCCN)NC(=O)[C@H](CCCNC(=N)N)NC(=O)CN)C(=O)N[C@@H](C)C(=O)N[C@H](C(=O)N[C@@H](Cc1ccc(O)cc1)C(=O)N[C@@H](CC(=O)O)C(=O)N[C@@H](CS)C(=O)N[C@@H](Cc1ccccc1)C(=O)N[C@H](C(=O)O)C(C)C)C(C)C [TAT-M17] (H-GRKKRRQRRRPPQCLAVYDCFV-OH; N-terminus and C-terminus assumed)	792
CC(C)C[C@H](NC(=O)[C@H](CS)NC(=O)[C@H](CCC(N)=O)NC(=O)[C@@H]1CCCN1C(=O)[C@@H]1CCCN1C(=O)[C@H](CCCNC(=N)N)NC(=O)[C@H](CCCNC(=N)N)NC(=O)[C@H](CCCNC(=N)N)NC(=O)[C@H](CCC(N)=O)NC(=O)[C@H](CCCNC(=N)N)NC(=O)[C@H](CCCNC(=N)N)NC(=O)[C@H](CCCCN)NC(=O)[C@H](CCCCN)NC(=O)[C@H](CCCNC(=N)N)NC(=O)CN)C(=O)N[C@@H](C)C(=O)N[C@H](C(=O)N[C@@H](Cc1c[nH]cn1)C(=O)N[C@@H](CC(=O)O)C(=O)N[C@@H](CS)C(=O)N[C@@H](Cc1ccccc1)C(=O)N[C@H](C(=O)O)C(C)C)C(C)C [TAT-M22] (H-GRKKRRQRRRPPQCLAVHDCFV-OH; N-terminus and C-terminus assumed)	138
CC(C)C[C@H](NC(=O)[C@H](Cc1ccccc1)NC(=O)[C@H](CS)NC(=O)[C@H](Cc1ccccc1)NC(=O)[C@@H]1CCCN1C(=O)[C@H](CO)NC(=O)[C@H](CCC(N)=O)NC(=O)[C@@H]1CCCN1C(=O)[C@@H]1CCCN1C(=O)[C@H](CCCNC(=N)N)NC(=O)[C@H](CCCNC(=N)N)NC(=O)[C@H](CCCNC(=N)N)NC(=O)[C@H](CCC(N)=O)NC(=O)[C@H](CCCNC(=N)N)NC(=O)[C@H](CCCNC(=N)N)NC(=O)[C@H](CCCCN)NC(=O)[C@H](CCCCN)NC(=O)[C@H](CCCNC(=N)N)NC(=O)CN)C(=O)N[C@@H](C)C(=O)N[C@@H](Cc1ccccc1)C(=O)N[C@@H](CS)C(=O)N[C@@H](Cc1ccccc1)C(=O)O [TAT-T7] (H-GRKKRRQRRRPPQSPFCFLAFCF-OH; N-terminus and C-terminus assumed)	1299
